This note sets out measurements from PubChem BioAssay AID2170 (The Scripps Research Institute Molecular Screening Center, 2009).

Only a part is listed here, and it is no random draw. The source made the active and inactive calls.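 The calls were made as follows: active = mean inhibition over replicate wells above the hit cutoff set for the earlier primary screen (cut at about 29% in these data); inactive = the rest.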

As usually defined, the inhibition is the relative decrease from the control value, in per cent.

For this experiment, the system named is M18 aspartyl aminopeptidase (Plasmodium falciparum 3D7). As to the kind of experiment: inhibition of P. falciparum M18 aminopeptidase – biochemical, QFRET, recombinant enzyme, triplicate, confirmation (AID 2170).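 Also: 0% = median of test compound wells and 100% = 2 mM ZnCl2.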 The note with it: recombinant PfM18AAP, H-Glu-NHMec fluorogenic cleavage; at 7.35 µM; stronger effect = higher value. The procedure, abridged:
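Material: recombinant P. falciparum M18 aspartyl aminopeptidase; Medium: Cobalt-containing Tris buffer with BSA; Also added: H-Glu-NHMec fluorogenic substrate; Compound: 7.35 µM single dose; Timing: Enzyme–compound pre-incubation 30 min, substrate reaction 90 min, both 25 °C; Detection: fluorescence 340/450 nm at 0 and 90 min; Controls: ZnCl2 inhibitor control; Replicates: triplicate wells per compound.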
On to `CC(C)=N/N=C(\N)N[N+](=O)[O-]`, for which the inhibition is inactive: -42.2%.
